Pooled drug test results. Numbers come from NIAID ChemDB, via PubChem.

Shared fields: tests in culture; agent: Aspergillus niger; method: broth dilution; endpoint: MIC

Neighbouring rows are from separate reports.

structure,strain or isolate,setting,value
O/N=C(/COc1cccc(Cl)c1)c1ccccc1,ATCC 16404,48 h,>125 µg/mL
COc1cc(C=NNC(=O)c2cnc3c(ccc4[nH]c(Cl)cc(C)c43)c2=O)ccc1O,,,1000 µg/mL
CCCCCCCCCCCCCC(=O)NC(CCCN)C(=O)NC(CCCN)C(=O)NC(CCCN)C(N)=O,ATCC 64028,,6.25 µg/mL
COc1cccc(OCC(=O)c2ccccc2)c1,ATCC 16404,48 h,>125 µg/mL
COc1cc(C2C(Cl)C(=O)N2NC(=O)c2cnc3c(ccc4[nH]c(Cl)cc(C)c43)c2=O)ccc1O,,,500 µg/mL
CCCCCCCCCC(=O)NC(CCCN)C(N)=O,ATCC 64028,,>100 µg/mL
COc1ccccc1C=NNC(=O)c1cnc2c(ccc3[nH]c(Cl)cc(C)c32)c1=O,,,1000 µg/mL
CCC(C)CC(C)CCCCCCCCC(=O)N[C@H]1C[C@@H](O)[C@H](NCCN)NC(=O)[C@@H]2[C@@H](O)CCN2C(=O)[C@H]([C@H](O)CCN)NC(=O)[C@H]([C@H](O)[C@@H](O)c2ccc(O)cc2)NC(=O)[C@@H]2C[C@@H](O)CN2C(=O)[C@H]([C@@H](C)O)NC1=O,ATCC 16404,,64 µg/mL
Cc1cc(Cl)[nH]c2ccc3c(=O)c(C(=O)NN=Cc4ccccc4Cl)cnc3c12,,,500 µg/mL
CCCCCCCCCCCCCCCCCC(=O)NC(CCCN)C(=O)NC(CCCN)C(N)=O,ATCC 64028,,12.5 µg/mL
COc1cc(OC/C(=N/O)c2ccccc2)cc(OC)c1OC,ATCC 16404,72 h,>125 µg/mL
CCCCCCCCCCCCCCCCCC(=O)NC(CCCN)C(=O)NC(CCCN)C(=O)NC(CCCN)C(=O)NC(CCCN)C(=O)NC(CCCN)C(N)=O,ATCC 64028,,1.5 µg/mL
COc1cc(OCC(=O)c2ccccc2)cc(OC)c1OC,ATCC 16404,72 h,>125 µg/mL
Cc1cc(Cl)[nH]c2ccc3c(=O)c(C(=O)NN=Cc4ccc(Cl)cc4)cnc3c12,,,250 µg/mL
CCCCCCCCCCCCCCCCCC(=O)NC(CCCN)C(=O)NC(CCCN)C(=O)NC(CCCN)C(N)=O,ATCC 64028,,3.1 µg/mL

An empty or dashed field is not shown.